The values below come from PMC10478095.

The assay addresses T1, PE18 (Rv1788) from Mycobacterium tuberculosis (Mycobacterium tuberculosis H37Rv), L7N649.
T1 chain: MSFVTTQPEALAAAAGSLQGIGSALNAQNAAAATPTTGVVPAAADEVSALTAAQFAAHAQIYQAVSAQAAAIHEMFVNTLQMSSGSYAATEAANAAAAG
Put plainly: BLI. The following applies: remark: other sources report otherwise.

B1: PPE26 (Rv1789) from Mycobacterium tuberculosis, Q79FK6 1-393 (natural protein)
chain: MDFGALPPEVNSVRMYAGPGSAPMVAAASAWNGLAAELSSAATGYETVITQLSSEGWLGPASAAMAEAVAPYVAWMSAAAAQAEQAATQARAAAAAFEAAFAATVPPPLIAANRASLMQLISTNVFGQNTSAIAAAEAQYGEMWAQDSAAMYAYAGSSASASAVTPFSTPPQIANPTAQGTQAAAVATAAGTAQSTLTEMITGLPNALQSLTSPLLQSSNGPLSWLWQILFGTPNFPTSISALLTDLQPYASFFYNTEGLPYFSIGMGNNFIQSAKTLGLIGSAAPAAVAAAGDAAKGLPGLGGMLGGGPVAAGLGNAASVGKLSVPPVWSGPLPGSVTPGAAPLPVSTVSAAPEAAPGSLLGGLPLAGAGGAGAGPRYGFRPTVMARPPFAG
By Kd is commonly meant the concentration at which binding is half-saturated. A lower Kd goes with a tighter complex. Take B1: the Kd is 610 nM.
